In the supplement of paper PMC3578754:

What was measured:
Test in all cases: fold change of IC50 against reference virus; higher = more resistant
delavirdine = compound: CC(C)Nc1cccnc1N1CCN(C(=O)c2cc3cc(NS(C)(=O)=O)ccc3[nH]2)CC1 [delavirdine]
Experimental: (§1)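 Cell-culture drug susceptibility tests of virus bearing the reverse transcriptase of each isolate, gathered from many studies.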

tenofovir = compound: C[C@H](Cn1cnc2c(N)ncnc21)OCP(=O)(O)O [tenofovir]
Experimental: as §1

nevirapine = compound: Cc1ccnc2c1NC(=O)c1cccnc1N2C1CC1 [nevirapine]
Experimental: as §1

stavudine = compound: Cc1cn([C@H]2C=C[C@@H](CO)O2)c(=O)[nH]c1=O [stavudine]
Experimental: as §1

zidovudine = compound: Cc1cn([C@H]2C[C@H](N=[N+]=[N-])[C@@H](CO)O2)c(=O)[nH]c1=O [zidovudine]
Experimental: as §1

zalcitabine = compound: Nc1ccn([C@H]2CC[C@@H](CO)O2)c(=O)n1 [zalcitabine]
Experimental: as §1

abacavir = compound: Nc1nc(NC2CC2)c2ncn([C@H]3C=C[C@@H](CO)C3)c2n1 [abacavir]
Experimental: as §1

efavirenz = compound: O=C1Nc2ccc(Cl)cc2[C@@](C#CC2CC2)(C(F)(F)F)O1 [efavirenz]
Experimental: as §1

didanosine = compound: O=c1[nH]cnc2c1ncn2[C@H]1CC[C@@H](CO)O1 [didanosine]
Experimental: as §1

| Test System | fold change of IC50 against reference virus (delavirdine) | fold change of IC50 against reference virus (tenofovir) | fold change of IC50 against reference virus (nevirapine) | fold change of IC50 against reference virus (stavudine) | fold change of IC50 against reference virus (zidovudine) | fold change of IC50 against reference virus (zalcitabine) | fold change of IC50 against reference virus (abacavir) | fold change of IC50 against reference virus (efavirenz) | fold change of IC50 against reference virus (didanosine) |
| --- | --- | --- | --- | --- | --- | --- | --- | --- | --- |
| HIV-1 isolate 883 (reverse transcriptase changes: V35M V60I K64R D67N K70R K101R V108I K122P I135T D177E I178L M184V T215F K219Q A272P K277R I293V, study 121) | 0.8 | 1.1 | 2 | 1.5 | 7.7 | 2.4 | 6.5 | 1 | 1.7 |
| HIV-1 isolate 1429 (reverse transcriptase changes: M41L D67N R83K K103N M184V Q207H L210W R211K T215Y A272P K311R, study 121) | 9.2 | 1.6 | 26 | 2.2 | 30 | 2 | 6 | 9.6 | 1.7 |
| HIV-1 isolate 1150 (reverse transcriptase changes: M41L E44D D67N K122E M184V L210W F214L T215Y K219E A272P K277R, study 138) | 0.1 | 0.6 | 0.1 | 1.3 | 1.7 | 1.3 | 2.5 | 0.2 | 1.2 |
| HIV-1 isolate 1299 (reverse transcriptase changes: I5S K20R E28K K32E V35R M41L E44D D67N K103N D123E I135M K166R D177E M184V G196E T200A L210W R211K T215Y V245E E297K, study 15) | 14 | 2.5 | 55 | 2.1 | 221 | 2.1 | 6.5 | 20 | 2 |
| HIV-1 isolate 1247 (reverse transcriptase changes: M41L V90I H96R K103N I135V T139R Q161P Y181C M184V G196E T200A, study 121) | ≥ 250 | 0.4 | ≥ 400 | 0.6 | 0.5 | 1.1 | 1.6 | 46 | 1.4 |
| HIV-1 isolate 776 (reverse transcriptase changes: D67N T69D K70R V106A K122E F214L T215F K219Q F227L A272P K277R, study 138) | 15.3 | 4.7 | ≥ 400 | 3.3 | 2400 | 1.4 | 4.1 | 201 | 1.7 |
| HIV-1 isolate 1200 (reverse transcriptase changes: D67N K70R A98S K101E K122E D123E D177E I178L V179I G190A T215I K219Q V245E K277R T286A E297K, study 121) | 2.1 | 3.5 | ≥ 400 | 2 | 177 | 1.2 | 2.8 | 76 | 1.2 |
| HIV-1 isolate 665 (reverse transcriptase changes: L100I K103N M184V L210W T215Y K219N, study 118) | 180 | 0.8 | 78 | 1.5 | 3.1 | 2.2 | 4.5 | 180 | 1.5 |
| HIV-1 isolate 784 (reverse transcriptase changes: D67N K70R A98S K122E D123E D177E I178L V179I G190A T215F K219Q V245E K277R T286A E297K K311R, study 121) | 0.4 | 3 | 85 | 2.4 | 154 | 1.4 | 3.4 | 4.3 | 1.4 |
| HIV-1 isolate 987 (reverse transcriptase changes: A62V S68G T69K K70G V75I F77L Y115F F116Y Q151M I178M M184V R211K K277R I293V, study 121) | 2.3 | 2.4 | 1 | 11 | 261 | 47 | 20 | 0.9 | 23 |
| HIV-1 isolate 52 (reverse transcriptase changes: V35I S48T D67N T69N K70R K122E M184V G196E H208Y T215F D218E K219Q V245M A272P A288T, study 121) | 0.3 | 0.8 | 0.3 | 1.8 | 3.1 | 2.1 | 5.5 | 0.2 | 1.8 |
| HIV-1 isolate 188 (reverse transcriptase changes: D67N K70R K122E Q174R D177E I195M G196E Q207G F214L K219Q A288S, study 15) | 0.7 | 1.5 | 0.3 | 1.1 | 12 | 1.1 | 1 | 0.4 | 0.9 |
| HIV-1 isolate 493 (reverse transcriptase changes: V35I M41L K43Q V75A A98S K101S K102R D121Y K122E I135T V179E Y181C M184V T200A L210W T215Y K223Q L228R V245M A272P K275R K277R P294T, study 121) | 60 | 1.3 | ≥ 400 | 2.5 | 11 | 2.3 | 3.4 | 15 | 1.8 |
| HIV-1 isolate 1174 (reverse transcriptase changes: M41L W88C V111I K122E M184V L210W T215Y K275R K277R Q278N L283I I293V, study 121) | 0.4 | 1.2 | 0.6 | 1.6 | 3.6 | 2.5 | 5 | 0.4 | 1.6 |

Fold change is the IC50 on the isolate divided by the IC50 on a reference virus; 1 = unchanged, higher = more resistant. Changes are given against the subtype B consensus. No active / inactive call. The values were gathered from many studies (numbered anew) with different assays, which the source does not name. Most viruses are clinical isolates; some are laboratory strains or clones with known resistance changes. Isolates with mixed residues are left out; stretches that were not sequenced show no change. Round top values that many isolates share are read here as limits; other very high values and 0.1 may be limits too.
